Experimental data as given in US20250066704A1, “CIRCUIT LADDER MICROFLUIDIC PLATFORM (CLAMP) FOR RAPID ANTIMICROBIAL SUSCEPTIBILITY TESTING (AST)” (CORNELL UNIVERSITY, priority 2023, published 2025).

Each compound was assayed on bacterial isolates from canine urinary tract infections (Escherichia coli, Proteus mirabilis, Enterococcus faecalis, Staphylococcus pseudintermedius) (assay: On-chip AST with the ladder microfluidic system, MICs compared with the Sensititre Veterinary UTI plate (SVU)). Details: 30 canine UTI isolates (EC, PRM, SP, EF); match = on-chip MIC within ±one 2-fold dilution of SVU MIC; 4-5 h incubation at 37° C.
Format: cell-based
For CC1(C)S[C@@H]2[C@H](NC(=O)[C@H](N)c3ccccc3)C(=O)N2[C@H]1C(=O)O [Ampicillin], the “MIC accuracy of on-chip AST (on-chip MIC matching SVU MIC)” value (“MIC accuracy of on-chip AST” for short) was 100.0%. With CC1=C(C(=O)O)N2C(=O)[C@@H](NC(=O)[C@H](N)c3ccccc3)[C@H]2SC1 [Cefalexin] the “MIC accuracy of on-chip AST” value was 96.30%. In the case of CO/N=C(\C(=O)N[C@@H]1C(=O)N2C(C(=O)O)=C(CSC(=O)c3ccco3)CS[C@H]12)c1csc(N)n1 [Ceftiofur], the “MIC accuracy of on-chip AST” value is reported as 96.55%. With CCN1CCN(c2cc3c(cc2F)c(=O)c(C(=O)O)cn3C2CC2)CC1 [Enrofloxacin] the “MIC accuracy of on-chip AST” value was 83.33%.
